Results deposited as PubChem BioAssay AID1224833 (University of Georgia, 2016)
Shown is a random part of about 12,000 reagents. Over the whole deposit, about 5,600 (46%) got an active call. 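Active calls cover z-scores past 1 in both directions, so they include lowered as well as raised rotavirus replication.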

Assay: 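Human genes whose knock-down alters rotavirus replication in monkey cells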 (primary screen)
System: monkey MA104 kidney cells
Knock-down reagent: siRNA pool against human genes, 50 nM
Time to read-out: 48 h knock-down before infection; read 24 h after infection
Treatment: infection with rotavirus strain RV3 two days after transfection; infectious dose for this stage not given
Read-out: 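z-score of rotavirus antigen signal per well, from a fluorescent immunoassay, relative to non-targeting control wells on the same plate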
Direction: z-score vs non-targeting control: higher = more rotavirus replication than with non-targeting control
Hit rule: In these data the active calls have z-score vs non-targeting control at about -1 or lower, or at about 1 or higher
Calls: active = z-score beyond 1 either way; inactive = z-score within 1 of zero

| gene | PubChem SID | z-score vs non-targeting control | activity call |
| --- | --- | --- | --- |
| SMARCA1 (SNF2 related chromatin remodeling ATPase 1) | SID329575390 | -0.556 | inactive |
| CALHM4 (calcium homeostasis modulator family member 4) | SID329583578 | -2.14 | active |
| TFCP2L1 (transcription factor CP2 like 1) | SID329578695 | 0.754 | inactive |
| IFNL3 (interferon lambda 3) | SID329583800 | -3.06 | active |
| LXN (latexin) | SID329580092 | 0.167 | inactive |
| HIP1R (huntingtin interacting protein 1 related) | SID329576381 | 0.0798 | inactive |
| DKK3 (dickkopf Wnt signaling pathway inhibitor 3) | SID329578498 | -0.539 | inactive |
| BEX3 (brain expressed X-linked 3) | SID329578462 | 0.25 | inactive |
| UVSSA (UV stimulated scaffold protein A) | SID329580335 | 0.689 | inactive |
| LRRC1 (leucine rich repeat containing 1) | SID329579651 | 0.187 | inactive |
| XPO1 (exportin 1) | SID329575832 | -1.87 | active |
| AVL9 (AVL9 cell migration associated) | SID329577797 | -1.41 | active |
| CPXM1 (carboxypeptidase X, M14 family member 1) | SID329580023 | 0.81 | inactive |
| MYOT (myotilin) | SID329576626 | -1.42 | active |
| TEKTIP1 (tektin bundle interacting protein 1) | SID329584750 | 0.344 | inactive |
| CLDN10 (claudin 10) | SID329576403 | 0.083 | inactive |
| C5AR1 (complement C5a receptor 1) | SID329572963 | -0.568 | inactive |
| DBNL (drebrin like) | SID329578628 | -1.32 | active |
| KLHL13 (kelch like family member 13) | SID329581940 | -2.09 | active |
| GART | SID329573721 | -0.871 | inactive |
| RHOT2 (ras homolog family member T2) | SID329581912 | 0.123 | inactive |
| GPSM2 (G protein signaling modulator 2) | SID329578709 | -0.55 | inactive |
| GCNT2 (glucosaminyl (N-acetyl) transferase 2 (I blood group)) | SID329573743 | 0.967 | inactive |
| CAPRIN2 (caprin family member 2) | SID329580768 | 0.847 | inactive |
| RP1L1 (RP1 like 1) | SID329582145 | -1.88 | active |
| COL8A1 (collagen type VIII alpha 1 chain) | SID329573209 | 1.62 | active |
| ELFN1 | SID329584461 | -3.67 | active |
| OR52N1 (olfactory receptor family 52 subfamily N member 1) | SID329580890 | -0.39 | inactive |
| TDP1 (tyrosyl-DNA phosphodiesterase 1) | SID329579865 | -0.892 | inactive |
| ZNF77 (zinc finger protein 77) | SID329580414 | 0.556 | inactive |
| FCER1G (Fc epsilon receptor Ig) | SID329573615 | -0.782 | inactive |
| BLOC1S1 (biogenesis of lysosomal organelles complex 1 subunit 1) | SID329573740 | -0.32 | inactive |
| PRR22 (proline rich 22) | SID329583236 | 2.48 | active |
| MRPL35 (mitochondrial ribosomal protein L35) | SID329579019 | -0.62 | inactive |
| AMMECR1L (AMMECR1 like) | SID329581420 | 0.952 | inactive |
| CSHL1 (chorionic somatomammotropin hormone like 1) | SID329573284 | -0.747 | inactive |
| TMPRSS6 (transmembrane serine protease 6) | SID329583260 | -4.32 | active |
| RABL3 (RAB, member of RAS oncogene family like 3) | SID329583924 | 0.17 | inactive |
| LHX3 (LIM homeobox 3) | SID329575987 | 2.41 | active |
| ESX1 (ESX homeobox 1) | SID329581233 | -0.184 | inactive |
| DNAJC9 (DnaJ heat shock protein family (Hsp40) member C9) | SID329577885 | 0.248 | inactive |
| AQP10 (aquaporin 10) | SID329581904 | -0.62 | inactive |
| MYG1 (MYG1 exonuclease) | SID329580463 | -0.654 | inactive |
| SECTM1 (secreted and transmembrane 1) | SID329575287 | -1.83 | active |
| PTRH2 (peptidyl-tRNA hydrolase 2) | SID329579163 | -1.5 | active |
| MFAP1 (microfibril associated protein 1) | SID329574432 | 0.489 | inactive |
| PWWP3B (PWWP domain containing 3B) | SID329582774 | 0.805 | inactive |
| ZC3H8 (zinc finger CCCH-type containing 8) | SID329581646 | 0.752 | inactive |
| SLC26A3 | SID329573444 | 0.853 | inactive |
| MSI1 (musashi RNA binding protein 1) | SID329574488 | -0.75 | inactive |
| TMCC1 (transmembrane and coiled-coil domain family 1) | SID329577767 | 0.923 | inactive |
| GSPT2 (G1 to S phase transition 2) | SID329578119 | -1.34 | active |
| ETAA1 (ETAA1 activator of ATR kinase) | SID329579282 | -1.41 | active |
| CRNN (cornulin) | SID329578788 | -1.77 | active |
| ZNF69 (zinc finger protein 69) | SID329575876 | 0.46 | inactive |
| ARVCF (ARVCF delta catenin family member) | SID329572833 | -2.58 | active |
| KCTD1 (potassium channel tetramerization domain containing 1) | SID329583874 | -1.32 | active |
| KIF5A (kinesin family member 5A) | SID329574212 | -0.999 | inactive |
| CCER1 (coiled-coil glutamate rich protein 1) | SID329583362 | 0.759 | inactive |
| CD83 (CD83 molecule) | SID329576523 | 0.838 | inactive |
| PROCA1 (protein interacting with cyclin A1) | SID329582925 | -0.341 | inactive |
| CHRFAM7A (CHRNA7 (exons 5-10) and FAM7A (exons A-E) fusion) | SID329581896 | -1.36 | active |
| STARD7 (StAR related lipid transfer domain containing 7) | SID329580083 | -1.5 | active |
| SCAND1 (SCAN domain containing 1) | SID329578999 | -0.973 | inactive |
| SPINT1 (serine peptidase inhibitor, Kunitz type 1) | SID329575463 | 1.22 | active |
| KHSRP (KH-type splicing regulatory protein) | SID329576180 | -3.85 | active |
| TAFA1 (TAFA chemokine like family member 1) | SID329584535 | -2.55 | active |
| OR5J2 (olfactory receptor family 5 subfamily J member 2) | SID329583805 | -1.27 | active |
| KTN1 (kinectin 1) | SID329574264 | -0.96 | inactive |
| MAOA (monoamine oxidase A) | SID329574386 | -0.762 | inactive |
| SIPA1L2 (signal induced proliferation associated 1 like 2) | SID329580295 | -1.46 | active |
| ELMOD3 (ELMO domain containing 3) | SID329581537 | -2.62 | active |
| USP51 (ubiquitin specific peptidase 51) | SID329583167 | 0.643 | inactive |
| GKN2 (gastrokine 2) | SID329583410 | -0.147 | inactive |
| S100A12 (S100 calcium binding protein A12) | SID329575232 | -0.469 | inactive |
| PHTF1 (putative homeodomain transcription factor 1) | SID329577341 | -1.55 | active |
| EEF1AKMT3 (EEF1A lysine methyltransferase 3) | SID329578210 | 0.818 | inactive |
| YTHDF3 (YTH N6-methyladenosine RNA binding protein F3) | SID329583691 | -1.17 | active |

Entries above whose target name begins with T or t:
| gene | PubChem SID | z-score vs non-targeting control | activity call |
| --- | --- | --- | --- |
| TFCP2L1 (transcription factor CP2 like 1) | SID329578695 | 0.754 | inactive |
| TEKTIP1 (tektin bundle interacting protein 1) | SID329584750 | 0.344 | inactive |
| TDP1 (tyrosyl-DNA phosphodiesterase 1) | SID329579865 | -0.892 | inactive |
| TMPRSS6 (transmembrane serine protease 6) | SID329583260 | -4.32 | active |
| TMCC1 (transmembrane and coiled-coil domain family 1) | SID329577767 | 0.923 | inactive |
| TAFA1 (TAFA chemokine like family member 1) | SID329584535 | -2.55 | active |

The listing continues.
| gene | PubChem SID | z-score vs non-targeting control | activity call |
| --- | --- | --- | --- |
| MPI (mannose phosphate isomerase) | SID329574475 | -1.01 | active |
| CT47A11 (cancer/testis antigen family 47 member A11) | SID329583721 | 1.06 | active |
| WDR48 (WD repeat domain 48) | SID329580315 | 1.46 | active |
| GEMIN6 (gem nuclear organelle associated protein 6) | SID329581033 | 0.159 | inactive |
| ARHGAP19 (Rho GTPase activating protein 19) | SID329581809 | -1.23 | active |
| COPS4 (COP9 signalosome subunit 4) | SID329578929 | -0.0643 | inactive |
| PLA2G7 (phospholipase A2 group VII) | SID329575974 | 0.906 | inactive |
| TAAR9 (trace amine associated receptor 9) | SID329582719 | -1.36 | active |
| MND1 (meiotic nuclear divisions 1) | SID329581502 | -0.168 | inactive |
| OR2H1 (olfactory receptor family 2 subfamily H member 1) | SID329578438 | 1.08 | active |
| FKBP6 (FKBP prolyl isomerase family member 6 (inactive)) | SID329576125 | -1.5 | active |
| SLC22A2 | SID329575383 | -0.575 | inactive |
| PTBP1 (polypyrimidine tract binding protein 1) | SID329575005 | -0.999 | inactive |
| SYNM (synemin) | SID329577945 | -1.23 | active |
| OR6M1 (olfactory receptor family 6 subfamily M member 1) | SID329584409 | -1.58 | active |
| GLYAT (glycine-N-acyltransferase) | SID329577054 | -0.785 | inactive |
| PANX3 (pannexin 3) | SID329582308 | -1.1 | active |
| LRRC56 (leucine rich repeat containing 56) | SID329582269 | 1.61 | active |
| CORIN (corin, serine peptidase) | SID329577325 | 0.64 | inactive |
| CBFA2T2 (CBFA2/RUNX1 partner transcriptional co-repressor 2) | SID329576445 | -1.98 | active |
| GPX1 (glutathione peroxidase 1) | SID329573850 | -0.95 | inactive |
| HAUS6 (HAUS augmin like complex subunit 6) | SID329579394 | -2.3 | active |
| RAP1B (RAP1B, member of RAS oncogene family) | SID329575070 | 0.836 | inactive |
| WDR25 (WD repeat domain 25) | SID329580888 | 1.53 | active |
| ACE2 (angiotensin converting enzyme 2) | SID329580445 | 1.16 | active |
| MMAA (metabolism of cobalamin associated A) | SID329583276 | -0.923 | inactive |
| CTAGE4 (CTAGE family member 4) | SID329584749 | 0.64 | inactive |
| EFEMP2 (EGF-like fibulin extracellular matrix protein 2) | SID329578762 | -1.07 | active |
| COX7A1 (cytochrome c oxidase subunit 7A1) | SID329573232 | -0.982 | inactive |
| LIG4 (DNA ligase 4) | SID329574299 | -1.39 | active |
| RPUSD4 (RNA pseudouridine synthase D4) | SID329581751 | -0.961 | inactive |
| OS9 (OS9 endoplasmic reticulum lectin) | SID329577449 | -0.933 | inactive |
| LPP | SID329574324 | 0.367 | inactive |
| UBP1 (upstream binding protein 1) | SID329575752 | 0.445 | inactive |
| AKR1B10 (aldo-keto reductase family 1 member B10) | SID329580135 | 1.88 | active |
| NFATC2 (nuclear factor of activated T cells 2) | SID329574605 | -0.777 | inactive |
| RTTN (rotatin) | SID329578219 | -0.331 | inactive |
| RGS9BP (regulator of G protein signaling 9 binding protein) | SID329584326 | 1.89 | active |
| FNBP4 (formin binding protein 4) | SID329577955 | 0.214 | inactive |
| CSF3R (colony stimulating factor 3 receptor) | SID329573283 | -2.44 | active |
| MRFAP1L1 (Morf4 family associated protein 1 like 1) | SID329582251 | 0.228 | inactive |
| TMEM8B (transmembrane protein 8B) | SID329579198 | 0.463 | inactive |
| CA14 (carbonic anhydrase 14) | SID329578098 | -0.906 | inactive |
| FCRLB (Fc receptor like B) | SID329582589 | -1.37 | active |
| IL18 (interleukin 18) | SID329574160 | -0.557 | inactive |
| GON7 (GON7 subunit of KEOPS complex) | SID329581644 | -2.01 | active |
| DBR1 (debranching RNA lariats 1) | SID329578945 | -0.888 | inactive |
| CTR9 (CTR9 component of Paf1/RNA polymerase II complex) | SID329576705 | -0.0595 | inactive |
| ZNF404 (zinc finger protein 404) | SID329584108 | -0.786 | inactive |
| ALDOC (aldolase, fructose-bisphosphate C) | SID329572746 | 1.76 | active |
| PQBP1 (polyglutamine binding protein 1) | SID329576954 | 0.81 | inactive |
| OR52E2 (olfactory receptor family 52 subfamily E member 2) | SID329582388 | 0.21 | inactive |
| MRPL32 (mitochondrial ribosomal protein L32) | SID329580735 | 1.07 | active |
| CD180 (CD180 molecule) | SID329574347 | -0.576 | inactive |
| SPATA6L (spermatogenesis associated 6 like) | SID329579546 | -2.48 | active |
| ASAP3 (ArfGAP with SH3 domain, ankyrin repeat and PH domain 3) | SID329579773 | -1.15 | active |
| YIF1A | SID329577411 | 0.3 | inactive |
| MED12 (mediator complex subunit 12) | SID329576896 | -1.66 | active |
| PLCB2 (phospholipase C beta 2) | SID329574852 | 0.842 | inactive |
| ZFY (zinc finger protein Y-linked) | SID329575847 | -0.521 | inactive |
| SPAG5 (sperm associated antigen 5) | SID329577274 | 0.0754 | inactive |
| STXBP4 (syntaxin binding protein 4) | SID329583671 | -1.32 | active |
